Key:
Conditions in all cases: read-out: Mean IC50 ± SD
[1] = target: NA of A/bald eagle/Florida/22-006544-004/2022 (Influenza A virus, UniProt Q9Q0U7); format: biochemical
[2] = target: NA of A/turkey/Iowa/22-012098-001/2022 (Influenza A virus, UniProt Q9Q0U7); format: biochemical
[3] = target: NA of A/black vulture/Maryland/22-012407-001/2022 (Influenza A virus (H5N1), UniProt Q9Q0U7); format: biochemical
[4] = target: NA of A/Cooper's hawk/Minnesota/22-012931-001/2022 (Influenza A virus, UniProt Q9Q0U7); format: biochemical, influenza A(H5N1) virus
[5] = target: NA of A/red-shouldered hawk/Minnesota/22-012000-004/2022 (Influenza A virus, UniProt Q9Q0U7); format: biochemical
[6] = target: NA of A/fox/Wisconsin/22-013774-002/2022 (Influenza A virus, UniProt Q9Q0U7); format: biochemical
[7] = target: NA of A/Canada goose/Wyoming/22-011671-001/2022 (Influenza A virus, UniProt Q9Q0U7); format: biochemical, influenza A(H5N1) virus
[8] = target: NA of A/black vulture/Florida/22-012333-001/2022 (N/S295, T/N438, mixed population) (Influenza A virus (H5N1), UniProt Q9Q0U7); format: biochemical

Amino acid sequences for entries named in this document (tags omitted).
UniProt Q9Q0U7, whole entry, looked up: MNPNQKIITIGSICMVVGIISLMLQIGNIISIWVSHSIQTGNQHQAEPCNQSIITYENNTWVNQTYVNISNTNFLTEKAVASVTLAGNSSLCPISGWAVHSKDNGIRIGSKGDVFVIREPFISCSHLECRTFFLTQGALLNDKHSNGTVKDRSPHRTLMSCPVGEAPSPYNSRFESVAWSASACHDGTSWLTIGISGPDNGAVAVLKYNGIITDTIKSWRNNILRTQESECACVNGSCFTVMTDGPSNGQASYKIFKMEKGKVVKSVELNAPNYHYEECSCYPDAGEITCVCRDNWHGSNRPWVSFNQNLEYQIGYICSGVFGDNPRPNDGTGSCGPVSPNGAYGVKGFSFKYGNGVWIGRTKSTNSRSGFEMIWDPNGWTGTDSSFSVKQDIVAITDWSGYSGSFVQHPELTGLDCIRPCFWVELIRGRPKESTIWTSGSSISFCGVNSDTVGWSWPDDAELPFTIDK

oseltamivir carboxylate
IC50 [1]: 3.01 nM
IC50 [2]: 2.66 nM
IC50 [3]: 2.31 nM
IC50 [4]: 2.73 nM
IC50 [5]: 2.39 nM
IC50 [6]: 2.78 nM
IC50 [7]: 2.7 nM
IC50 [8]: 11.1 nM
